ChEMBL document CHEMBL3885881, “DrugMatrix”

Species: Rattus norvegicus
Test: DrugMatrix - Regimen: Daily Repeat
Type: toxicity, organism-based, Sprague-Dawley
Design: regimen Daily Repeat, gender Male, age 6-8 weeks
Settings: in vivo, iv, tissue Blood, vehicle 100 % SALINE

Sequence | MONOCYTE (55 mg/kg, 120 h, dose level Low, time 5 day) | MONOCYTE (0 mg/kg, 72 h, dose level Control, time 3 day)
GADOPENTETATE DIMEGLUMINE | 2.33% | 
LIPOPOLYSACCHARIDE E. COLI O55:B5 |  | 1.83%
